Data published in US11603552B2 (priority 2020, dated 2023).

Target: MERS PLpro (Middle East respiratory syndrome-related coronavirus, UniProt K9N7C7)
Assay: substrate cleavage by coronavirus PLpro

For hTyr-Dap-G-G (SEQ ID NO. 13), the “recognition of the substrate” value was “do not recognize”.
